Biological target: vcFabH1 (Vibrio cholerae serotype O1, UniProt Q9KQH5)
Format: biochemical

The chains behind the UniProt entries cited, without tags or fusion partners. Where a name states a change or a piece, a line headed by the entry shows the natural chain unless it says otherwise.
UniProt Q9KQH5: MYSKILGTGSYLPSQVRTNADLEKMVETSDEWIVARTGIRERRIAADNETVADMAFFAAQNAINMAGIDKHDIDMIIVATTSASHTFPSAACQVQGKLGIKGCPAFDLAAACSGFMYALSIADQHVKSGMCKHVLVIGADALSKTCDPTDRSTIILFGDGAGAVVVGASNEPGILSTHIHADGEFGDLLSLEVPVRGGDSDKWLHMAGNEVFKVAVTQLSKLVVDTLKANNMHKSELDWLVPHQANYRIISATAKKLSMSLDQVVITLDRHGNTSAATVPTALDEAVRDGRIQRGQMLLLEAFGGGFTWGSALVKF

In the case of `CCC(=O)SCCNC(=O)CCNC(=O)[C@H](O)C(C)(C)COP(=O)(O)OP(=O)(O)OC[C@H]1O[C@@H](n2cnc3c(N)ncnc32)[C@H](O)[C@@H]1OP(=O)(O)O` [propionyl-CoA], the “Substrate utilization by vcFabH1 (in words)” value is reported as “more efficiently than acetyl-CoA”.
